According to PubChem BioAssay AID1533 (PCMD, 2009):
The list shows a part of the results, in another mix than the full data. Some salts and complexes are drawn in separate pieces, as the source files them; their charges need not balance. Active and inactive are the calls of the source. Cut-off read from the data, not from the text of the source: active = inhibition mostly above about 34% (no sharp cut-off); inconclusive = no clear call, values can overlap the other calls; inactive = mostly below about 22%.

Protein sequences, listed by entry. Tags and fused reporters are not part of them.
UniProt P9WH09, whole entry, looked up: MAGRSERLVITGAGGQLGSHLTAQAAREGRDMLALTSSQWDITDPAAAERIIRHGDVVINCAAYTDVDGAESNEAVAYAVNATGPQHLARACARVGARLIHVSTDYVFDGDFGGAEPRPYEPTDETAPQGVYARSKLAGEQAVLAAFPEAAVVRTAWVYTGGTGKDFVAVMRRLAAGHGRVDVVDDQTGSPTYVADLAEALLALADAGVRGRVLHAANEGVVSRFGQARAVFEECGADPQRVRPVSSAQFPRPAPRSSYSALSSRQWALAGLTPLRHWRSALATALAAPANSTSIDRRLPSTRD
UniProt P9WH11, whole entry, looked up: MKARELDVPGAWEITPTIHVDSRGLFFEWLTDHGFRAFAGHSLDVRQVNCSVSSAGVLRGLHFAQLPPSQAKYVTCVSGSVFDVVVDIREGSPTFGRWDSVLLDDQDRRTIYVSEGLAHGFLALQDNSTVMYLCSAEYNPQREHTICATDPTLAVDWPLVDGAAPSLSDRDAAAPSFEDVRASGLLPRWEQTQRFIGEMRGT

molecular target: dTDP-4-dehydrorhamnose reductase (Mycobacterium tuberculosis (strain ATCC 25618 / H37Rv)) + dTDP-4-dehydrorhamnose 3,5-epimerase (Mycobacterium tuberculosis (strain ATCC 25618 / H37Rv)) (UniProt P9WH09+P9WH11); test: M. tuberculosis RmlC/RmlD coupled enzyme inhibitors, primary screen, biochemical, compound mixtures, 384-well, from 1536-well plates (AID 1533); details: RmlC+RmlD coupled enzyme assay, percent inhibition; primary screen in compound mixtures; at 3.6 µM; active compounds read high

Structure (SMILES)	inhibition
C(Cc1nn[nH]n1)Cc1nn[nH]n1	inactive: 3.98%
Nc1ccc([As](=O)(O)c2ccc([N+](=O)[O-])cc2)cc1	inactive: -1.48%
O=C(OC1CN2CCC1CC2)c1cccc(Cl)c1 (configuration not stated)	inactive: -10.9%
O=C(NC1CCS(=O)(=O)C1)NP(=S)(Oc1ccccc1)Oc1ccccc1 (configuration not stated)	inactive: 7.83%
CCNC(=S)/N=C(\N)N[N+](=O)[O-]	inactive: 3.08%
c1ccc(-c2nn[nH]n2)c(-c2nn[nH]n2)c1	inactive: -1.64%
Cc1ccc(NP(=O)(Oc2cccc(C)c2)Oc2cccc(C)c2)nc1	inactive: 10.7%
COc1ccc(OP(C)(=O)Nc2ccc(SC(F)(F)F)cc2)cc1 (configuration not stated)	inactive: -7%
COC(=O)c1cc2c(s1)N=C(c1ccccc1)N(C)P2(=O)N1CCOCC1 (configuration not stated)	inactive: -1.92%
Cc1ccc(OP(=O)(Nc2ccccn2)Oc2ccc(C)cc2)cc1	inactive: 8.28%
CCC(=O)N1C2C3N(C(=O)CC)C1C1N(C(=O)CC)C(C(N1C(=O)CC)N3C(=O)CC)N2C(=O)CC	inactive: -4.24%
CCN(CC)CCCOC(=O)C(O)(c1ccccc1)C1CCCCC1 (configuration not stated)	inactive: -16.7%
Cc1ccccc1OP(=O)(Nc1ccccn1)Oc1ccccc1C	inactive: 1.51%
O=c1c2cc([N+](=O)[O-])ccc2[nH]c2c([N+](=O)[O-])cc([N+](=O)[O-])cc12	inactive: -14.5%
CCCCCOc1ccc(NP(C)(=O)Oc2ccc(Cl)cc2Cl)cc1 (configuration not stated)	inactive: 17.1%
CN(C)C(=O)Oc1noc2ccccc12	inactive: -9.3%
O=P1(Nc2nc3ccc(Cl)cc3s2)COc2ccccc2O1 (configuration not stated)	inactive: 2.7%
CC(C)(C)C(=O)NC(Sc1ccccc1)C(Cl)(Cl)Cl (configuration not stated)	inactive: 6.82%
O=C(OC1CN2CCC1CC2)c1ccc([N+](=O)[O-])cc1 (configuration not stated)	inactive: -4.13%
O=C(OCCN1CCN(CCOCc2ccccc2)CC1)C(O)(c1ccccc1)c1ccccc1	inactive: -3.54%
COc1ccc2c(c1O)-c1c(O)c(OC)cc3c1[C@H](C2)[N+](C)(C)CC3.O=[N+]([O-])c1cc([N+](=O)[O-])c([O-])c([N+](=O)[O-])c1[O-]	inactive: 3.6%
CC(=O)Nc1ccc(Oc2c([N+](=O)[O-])cc([N+](=O)[O-])cc2[N+](=O)[O-])cc1	inactive: -6.58%
NC(=O)c1cc([N+](=O)[O-])cc([N+](=O)[O-])c1N	inactive: -4.42%

Structure (SMILES)	inhibition
COc1ccccc1OP(C)(=O)Nc1ccc(Br)cc1 (configuration not stated)	inactive: -4.3%
Cc1ccc(N/C(=N/P(=O)(N2CCOCC2)N2CCOCC2)N2CCOCC2)cc1	inactive: -7.14%
COc1ccccc1OP(=O)(Nc1ccc(C)cn1)Oc1ccccc1OC	inactive: -3.2%
Cc1ccc(OP(=O)(Nc2nccs2)Oc2ccc(C)cc2)cc1	inactive: -1.96%
Nc1cc(N)c2nonc2c1[N+](=O)[O-]	inactive: -7.9%
Cc1c(NP(C)(=O)Oc2ccc(C(C)C)cc2)c(=O)n(-c2ccccc2)n1C (configuration not stated)	inactive: 3.12%
O=[N+]([O-])c1cc([N+](=O)[O-])c(Nc2ccccn2)c([N+](=O)[O-])c1	inactive: 2.27%
Oc1ccccc1CNc1ccccn1	inactive: 11.9%
Cc1c2non([O-])c-2c(C)[n+](=O)[n+]1[O-]	inactive: 1.6%
CP(=O)(Nc1ccccn1)Oc1ccccc1 (configuration not stated)	inactive: -6.53%
COc1ccccc1OP(C)(=O)Nc1ccc(C)cc1C (configuration not stated)	inactive: -5.7%
O=C(O)c1ccccc1[As](=O)(O)O	inactive: 13.8%
O=P(Nc1nc2ccc(Cl)cc2s1)(c1ccccc1)c1ccccc1	inactive: 2.63%
Cc1cc(C)cc(OP(C)(=O)Nc2cccc(C(F)(F)F)c2)c1 (configuration not stated)	inactive: -5.92%
Cc1cc(SC(NC(=O)c2ccc(F)cc2)C(Cl)(Cl)Cl)ncn1 (configuration not stated)	inactive: -7.96%
CCOP(=O)(Nc1ccccc1)OCC	inactive: 2.47%
COc1ccccc1OP(C)(=O)Nc1ccc(C)c(C)c1 (configuration not stated)	inactive: 2.61%
Cc1ccc(NP(=O)(Oc2ccccc2F)Oc2ccccc2F)nc1	inactive: -1.24%
COc1ccc(OP(C)(=O)Nc2ccccc2Br)cc1 (configuration not stated)	inactive: 6.73%
Cc1nc2ccc3ccccc3c2o1.O=[N+]([O-])c1cc([N+](=O)[O-])c(O)c([N+](=O)[O-])c1	inactive: 5.78%
Nc1cccc2ccc([As](=O)(O)O)cc12	inactive: -7.55%
CP(=O)(Nc1ccc(Cl)cc1Cl)Oc1ccccc1 (configuration not stated)	inactive: -13.2%
CP(=O)(OCCOc1ccccc1)OCCOc1ccccc1	inactive: -10.9%

Structure (SMILES)	inhibition
O=C(Nc1cc([As](=O)(O)O)ccc1O)c1ccccc1	inactive: 0.47%
CP(=O)(OC12CC3CC(CC(C3)C1)C2)OC12CC3CC(CC(C3)C1)C2	inactive: -1.94%
CC(C)(C)C(=O)NC(Sc1ccncn1)C(Cl)(Cl)Cl (configuration not stated)	inactive: 3.79%
O=[N+]([O-])c1ncn(CCn2ncnc2[N+](=O)[O-])n1	inactive: 15.6%
O=[N+]([O-])c1cccc(NC2=NCC(CBr)S2)c1 (configuration not stated)	inactive: 6.41%
O=C(O)CNc1ccc([As](=O)(O)O)cc1	inactive: -8.27%
CCN(CC)CC(O)COC(=O)C(O)(c1ccccc1)C1CCCCC1 (configuration not stated)	inactive: -3.58%
COc1ccc(OP(C)(=O)Nc2ccc(Br)cc2)cc1 (configuration not stated)	inactive: 6.88%
COc1ccc(C2=NCC(CBr)S2)cc1 (configuration not stated)	inactive: -9.24%
CC(=O)N1C2C3N(C(C)=O)C1C1N(C(C)=O)C(C(N1C(C)=O)N3C(C)=O)N2C(C)=O	inactive: 49.6%
O=[N+]([O-])c1cccc2n[nH]nc12	inactive: -6.12%
O=C(OCCCN1CCCC1)C(O)(c1ccccc1)C1CCCCC1 (configuration not stated)	inactive: 9.49%
Cc1ccc(NP(=O)(Oc2ccccc2)Oc2ccccc2)nc1	inactive: -4.38%
CCc1ccc(OP(C)(=O)Nc2cccnc2)cc1 (configuration not stated)	inactive: -7.58%
O=[N+]([O-])c1cc([N+](=O)[O-])c(CCNc2ccccc2)c([N+](=O)[O-])c1	inactive: 87.8%
COc1ccccc1OP(C)(=O)Nc1ccccc1Br (configuration not stated)	inactive: -6.82%
C[N+]1=C2C=CC=CC=C2SC12C([N+](=O)[O-])=CC([N+](=O)[O-])=C[C-]2[N+](=O)[O-] (configuration not stated)	inactive: -8.05%
CCN(/C(=N/P(=O)(N1CCOCC1)N1CCOCC1)N1CCOCC1)c1ccc(OC)cc1	inactive: 6%
CC(C)=N/N=C(\N)N[N+](=O)[O-]	inactive: -14.1%
CN(C)C(=O)c1c([N+](=O)[O-])cc([N+](=O)[O-])cc1[N+](=O)[O-]	inactive: 16.1%
CC1CCN(C(=O)Oc2c(Cl)cc(Cl)c3cccnc23)CC1	inactive: 16.3%
